Results of unrelated studies side by side (data: NIAID ChemDB).

All rows: growth or infection tests; agent: Rhinovirus

ECn: concentration that inhibits the pathogen or its effect by n%.

compound,cell line,method,endpoint,strain or isolate,result
Cc1cc(CCCCCOc2c(Cl)cc(C3=NCCO3)cc2Cl)on1,HeLa,plaque count,EC50,TYPE 86,0.14 µg/mL
COc1ccc(-c2snc(SC)c2C#N)cc1,HELA-OHIO,cytopathic effect,EC50,Serotype 9 (group B),>12 µM
CCn1c2c(c(=O)c3cc(C(C)C)ccc31)Cc1ccccc1-2,HELA-OHIO,cytopathic effect,EC50,TYPE 2,0.54 µg/mL
CS(=O)(=O)c1ccc(Cc2ccc(Cl)c(Cl)c2)nc1,HeLa,cytopathic effect,EC50,TYPE 33,1.3 µg/mL
CCO/N=C/c1ccc(OCCC2CCN(c3ccc(Cl)nn3)CC2)cc1,KB,neutral red,EC50,209 (ICAM-1 receptor group 39),0.003 µM
Cc1c(OCC(C)C)ccc2c1c(=O)cc(-c1ccccc1)n2C,HELA-OHIO,cytopathic effect,EC50,TYPE 2/ HGP,>1.7 µg/mL
Cc1cc(CCCOc2c(C)cc(-c3noc(C(F)(F)F)n3)cc2C)on1,OHIO HELA-I,cytopathic effect / visual reading,EC50,Isolate 19,0.11 µg/mL
Fc1cccc(Cn2cnc3c(Nc4cccc(F)c4)nc(C(F)(F)F)nc32)c1,M-HELA,plaque count,EC50,Serotype 13,55 µM
CS(=O)(=O)c1ccc(Cc2ccc(N)cc2)nc1,HeLa,cytopathic effect,EC50,TYPE 64,>10 µg/mL
CN(C)c1nc(C(F)(F)F)nc2c1ncn2Cc1ccccc1,M-HELA,plaque count,EC50,Serotype 19,>8 µM
CS(=O)(=O)c1ccc(Cc2ccc(Br)cc2)nc1,HeLa,cytopathic effect,EC50,TYPE 1A,0.6 µg/mL
CSc1nsc(-c2ccc(OCCCc3ccccc3)cc2)c1C#N,HELA-OHIO,cytopathic effect,EC50,Serotype 85 (group B),5 µM
CSc1ccc(Cc2ccc(S(C)(=O)=O)cn2)cc1,HeLa,cytopathic effect,EC50,TYPE 2,5 µg/mL
Cc1c(-c2ccccc2)n(-c2ccc(F)cc2)c2ccc(C(C)C)cc2c1=O,HELA-OHIO,cytopathic effect,EC50,16/11757,0.033 µg/mL
Fc1cccc(Nc2nc(C(F)(F)F)nc3c2ncn3Cc2ccccc2F)c1,M-HELA,plaque count,EC50,Serotype 2,5.1 µM
CCc1nc(-c2cc(C)c(OCCCc3cc(COC)no3)c(C)c2)no1,HeLa,cytopathic effect,EC50,Serotype 67,0.126 µg/mL
CS(=O)(=O)c1ccc(NCc2ccc(Cl)c(Cl)c2)nc1,HeLa,cytopathic effect,EC50,TYPE 1A,3.1 µg/mL
Cc1c(-c2ccccc2)n(-c2cccc(F)c2)c2ccc(C(C)C)cc2c1=O,HELA-OHIO,cytopathic effect,EC50,TYPE 89,0.034 µg/mL
Cc1ccccc1Cn1cnc2c(N(C)C)nc(C(F)(F)F)nc21,M-HELA,plaque count,EC50,Serotype 31,>8 µM
CS(=O)c1ccc(Cc2ccc(S(C)(=O)=O)cn2)cc1,HeLa,cytopathic effect,EC50,TYPE 64,>10 µg/mL
Cc1cc(OCCCc2ccc(Cl)nn2)cc(C)c1-c1noc(C(F)F)n1,HeLa,cytopathic effect,EC80,serotypes 3 4 5 9 16 18 38 66 75 67,0.03 µg/mL
COC(=O)c1cc(CCCOc2c(C)cc(-c3noc(C)n3)cc2C)on1,HeLa,cytopathic effect,EC50,Serotype 2,0.003 µg/mL
CCOC(=O)c1ccc(OCCCCOc2ccc(-c3snc(SC)c3C#N)cc2)cc1,HELA-OHIO,cytopathic effect,EC50,Serotype 14 (group A),>2 µM
Cc1cc(Cl)ccc1Cn1cnc2c(N(C)C)nc(C(F)(F)F)nc21,M-HELA,plaque count,EC50,Serotype 29,>8 µM
CSc1nsc(-c2ccc(OCCCCOc3ccc([N+](=O)[O-])cc3)cc2)c1C#N,HELA-OHIO,cytopathic effect,EC50,Serotype 29 (group B),>0.5 µM
CSc1nsc(-c2ccc(OS(=O)(=O)c3ccc(C)cc3)cc2)c1C#N,HELA-OHIO,cytopathic effect,EC50,Serotype 51 (group B),>25 µM
CSc1nsc(-c2ccc(OCCCOc3ccccc3)cc2)c1C#N,HELA-OHIO,cytopathic effect,EC50,Serotype 9 (group B),>20 µM
Cc1ccc(Cn2cnc3c(N(C)C)nc(C(F)(F)F)nc32)cc1C,M-HELA,plaque count,EC50,Serotype 13,>8 µM
CSc1nsc(-c2ccc(O)cc2)c1C#N,HELA-OHIO,cytopathic effect,EC50,Serotype 45 (group A),>10 µM
CN(C)c1nc(C(F)(F)F)nc2c1ncn2Cc1ccccc1Cl,M-HELA,plaque count,EC50,Serotype 13,>8 µM
CCOC(=O)c1ccc(OCCC2CCN(c3ccc(C)nn3)CC2)cc1,HELA-OHIO,cytopathic effect,EC50,Serotype 51 (group B),0.01 µM
Cc1cc(OCCCc2ccc(CO)nn2)cc(C)c1-c1noc(C(F)F)n1,HeLa,cytopathic effect,EC50,serotypes 3 4 5 9 16 18 38 66 75 67,0.15 µg/mL
CSc1nsc(-c2ccc(OCCc3ccccc3)cc2)c1C#N,HELA-OHIO,cytopathic effect,EC50,Serotype 45 (group A),>20 µM
Cc1nc(-c2cc(C)c(OCCCc3cc(C4CC4)no3)c(C)c2)no1,HeLa,cytopathic effect,EC50,Serotype 1A,0.034 µg/mL
Cc1cc(OCCCc2ccc(F)nn2)cc(C)c1-c1noc(C(F)(F)F)n1,HeLa,cytopathic effect,EC50,serotypes 3 4 5 9 16 18 38 66 75 67,0.08 µg/mL
CSc1ccc(Cn2cnc3c(N(C)C)nc(C(F)(F)F)nc32)cc1,M-HELA,plaque count,EC50,Serotype 13,>8 µM
CCOC(=O)c1ccc(OCCC2CCN(c3ccc(C)nn3)CC2)cc1,HeLa,cytopathic effect,EC50,Serotype 66,<0.1 µg/mL
COc1ccc(CCCOc2cc(C)c(-c3noc(C(F)(F)F)n3)c(C)c2)nn1,HeLa,cytopathic effect,EC50,serotypes 3 4 5 9 16 18 38 66 75 67,10.09 µg/mL

For reference, 5 entries again:

| compound | cell line | method | endpoint | strain or isolate | result |
|---|---|---|---|---|---|
| Cc1c(-c2ccccc2)n(-c2cccc(F)c2)c2ccc(C(C)C)cc2c1=O | HELA-OHIO | cytopathic effect | EC50 | TYPE 89 | 0.034 µg/mL |
| COc1ccc(CCCOc2cc(C)c(-c3noc(C(F)(F)F)n3)c(C)c2)nn1 | HeLa | cytopathic effect | EC50 | serotypes 3 4 5 9 16 18 38 66 75 67 | 10.09 µg/mL |
| CCO/N=C/c1ccc(OCCC2CCN(c3ccc(Cl)nn3)CC2)cc1 | KB | neutral red | EC50 | 209 (ICAM-1 receptor group 39) | 0.003 µM |
| CCOC(=O)c1ccc(OCCC2CCN(c3ccc(C)nn3)CC2)cc1 | HeLa | cytopathic effect | EC50 | Serotype 66 | <0.1 µg/mL |
| CSc1nsc(-c2ccc(OCCCc3ccccc3)cc2)c1C#N | HELA-OHIO | cytopathic effect | EC50 | Serotype 85 (group B) | 5 µM |

Lines come from different laboratories, so protocols vary.